Consider one substance from US20180057544.

The target of the assay is human CD20, human, P11836 1-297. The assay can be described thus: cell-based or functional assay.

In turn, (αCD20-scFv::SLT-1A)2 displayed a cytotoxicity relative to the "unpurified" (αCD20-scFv::SLT-1A)n composition of 2.3 fold.
